Experimental data: PMC3144219, “Identification of Inhibitors against Mycobacterium tuberculosis Thiamin Phosphate Synthase, an Important Target for the Development of Anti-TB Drugs” (PLoS ONE, 2011)

Chains of the proteins cited; added tags and fusions are not shown. Lines headed by an entry give the natural chain unless they say otherwise; changes in a name come on top.
UniProt P9WG75: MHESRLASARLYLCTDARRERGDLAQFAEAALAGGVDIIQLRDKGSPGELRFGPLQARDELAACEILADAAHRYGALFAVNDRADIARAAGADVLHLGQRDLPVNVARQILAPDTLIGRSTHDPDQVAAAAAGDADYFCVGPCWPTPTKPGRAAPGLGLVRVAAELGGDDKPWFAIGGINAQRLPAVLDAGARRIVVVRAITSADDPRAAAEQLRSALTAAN

Experiments:
M.tuberculosis H37Rv = assay: MIC99 determination in broth culture with CFU plating; format: cell-based; details: 7 days, 99% inhibition of growth
[1] = target: M.tuberculosis thiamin phosphate synthase (MtTPS) (Mycobacterium tuberculosis, UniProt P9WG75); assay: Thiamin phosphate synthase thiochrome assay (inhibition of MtTPS activity); details: for IC50: MtTPS activity, HMP-PP 5 µM (the Km value); for percent inhibition of MtTPS activity: compound at 100 µg/ml, normal assay conditions

2-{5-[2,4,6-trinitrophenyl)amino]-1H-tetrazol-1-yl}ethanol
MIC99 for M.tuberculosis (M.tuberculosis H37Rv): 300 µg/mL
IC50 [1]: 20 µ/ml
percent inhibition of MtTPS activity [1]: greater than 20%

3-benzhydryloxy-8-methyl-8-azab icyclo [3.2.1]octane;methanesulfonic acid
IC50 [1]: >100 µ/ml
percent inhibition of MtTPS activity [1]: greater than 20%
